Measured values from several laboratories, pooled; numbers as filed in NIAID ChemDB.

Common to all: whole-cell or culture tests; agent: HIV-1; cells: MT-4; read-out: EC90

ECn is the concentration giving n% inhibition of infection, replication or growth. Blank or dashed fields: not listed here. Conditions beyond the fields shown may differ between rows.

structure	strain or isolate	mutations	read by	result
O=C1Nc2ccc(Cl)c(O)c2[C@@](C#CC2CC2)(C(F)(F)F)N1		RT-K103N	p24	0.028 µM
CSc1cc(N)nc(S[C@@H](C)c2cc3c(C)coc3cn2)n1	IIIB		p24	0.004 µM
O=C1Nc2ccc(Cl)cc2[C@@](/C=C/C2CC2)(C(F)(F)F)N1		RT-K103N	p24	0.027 µM
CN1CC(=O)C(=O)C=C1Cn1cnc([N+](=O)[O-])c1Nc1ccc(Cl)cc1	IIIB		MTT	>250 µM
Cc1cc(C)cc(S(=O)(=O)c2c(C(=O)NCC(=O)NN)[nH]c3ccc(Cl)cc23)c1	IIIB		cytopathic effect / MTT / p24	0.03 µM
CC1(C)C2CC[C@]3(C)C(C(=O)C=C4C5C[C@@](C)(C(=O)O)CC[C@]5(C)CC[C@]43C)[C@@]2(C)CC[C@@H]1O[C@@H]1O[C@H](C(=O)[O-])[C@@H](O[C@@H]2O[C@H](C(=O)[O-])[C@@H](OS(=O)(=O)[O-])[C@H](OS(=O)(=O)[O-])[C@H]2OS(=O)(=O)[O-])[C@H](OS(=O)(=O)[O-])[C@H]1OS([O-])(O)O	EVK		p24	>1000 µg/mL
COc1c(Cl)ccc2c1[C@@](C#Cc1ccccc1)(C(F)(F)F)NC(=O)N2		RT-K103N	p24	0.113 µM
CCSCCCCCCCCCCC(=O)OC[C@@H]1C=C[C@H](n2cc(C)c(=O)[nH]c2=O)O1			p24	0.65 µM
CN1CC(=O)C(=O)C=C1Cn1cnc([N+](=O)[O-])c1Nc1ccc(Br)cc1	IIIB		MTT	>6.8 µM
Cc1cn([C@H]2C=C[C@@H](CO)O2)c(=O)[nH]c1=O	XM-ABC-resistant	RT-K65R L74V M184V Y115F	p24	0.8 µM
CN1CC(=O)C(=O)C=C1Cn1cnc([N+](=O)[O-])c1Nc1ccccc1	IIIB		MTT	>250 µM
NC1=NC2C(N=CN2[C@H]2C[C@@H](CCP(=O)(O)O)CO2)C(=O)N1			MTT	95 µg/mL
Nc1ccn([C@H]2CC[C@@H](CO)O2)c(=O)n1	IIIB		MTT	0.632 µM
CCCCCCCCCCCCCC(=O)OC[C@@H]1C=C[C@H](n2cc(C)c(=O)[nH]c2=O)O1			p24	1.1 µM
Nc1nc(NC2CC2)c2ncn([C@H]3C=C[C@@H](CO)C3)c2n1	NL-XM WT		p24	1.9 µM
Nc1nccc2c1ncn2[C@H]1C=C[C@@H](CO)O1	IIIB		syncytia	>100 µM
CCSCCCCCCCCCCCC(=O)OC[C@@H]1C=C[C@H](n2cc(C)c(=O)[nH]c2=O)O1			p24	0.6 µM
Cc1ccc(C2CC2)c(-c2ccc3c(c2C)CCCO3)c1[C@H](OC(C)(C)C)C(=O)O	NL4-3		luminescence	0.0046 µM
O=C1Nc2ccc(Cl)cc2[C@@](C#CC2CC2)(C(F)(F)F)N1		RT-K103N	p24	0.01 µM
Cc1cc(C)cc(S(=O)(=O)c2c(C(N)=O)[nH]c3c(Cl)cc(Cl)cc23)c1	IIIB		cytopathic effect / MTT	1.2 µM

For reference, 3 entries again:

structure	strain or isolate	mutations	read by	result
Nc1nc(NC2CC2)c2ncn([C@H]3C=C[C@@H](CO)C3)c2n1	NL-XM WT		p24	1.9 µM
Cc1cc(C)cc(S(=O)(=O)c2c(C(N)=O)[nH]c3c(Cl)cc(Cl)cc23)c1	IIIB		cytopathic effect / MTT	1.2 µM
CSc1cc(N)nc(S[C@@H](C)c2cc3c(C)coc3cn2)n1	IIIB		p24	0.004 µM